Pooled drug test results. Numbers come from NIAID ChemDB, via PubChem.

Shared fields: growth or infection tests; species: Varicella zoster virus; method: plaque count; read-out: EC50

Conditions beyond the fields shown may differ between rows. ECn is the concentration giving n% inhibition of infection, replication or growth. a–b is a range or a potency band. An empty or dashed field is not shown.

smiles	strain	cells	result
Cn1cc(C(=O)NCc2ccc(Cl)cc2)c(=O)c2cc(CN3CCOCC3)ccc21	-	VERO	0.34 µM
CCCCCCCOCCc1cc2cn([C@H]3C[C@H](O)[C@@H](CO)O3)c(=O)nc2o1	YS	HEL	8.1 µM
CC1(C)[C@@H](CCO)C[C@H]1n1nnc2c(N)ncnc21	TK+/YS	HEL	>20 µg/mL
Cc1c(Br)cc(Br)c2ncc(CSCc3ccc(Cl)cc3)n12	YS/R (TK-)	HEL	2.9 µg/mL
CCCCCCCc1cc2cn([C@H]3C[C@H](O)[C@@H](CO)O3)c(=O)nc2o1	YS	HEL	0.33 µM
CCCCCOc1nc(N)nc2c1ncn2/C=C1/C[C@@H]1CO	-	HFF	>66 µM
C=Cc1cc([C@H]2C[C@H](O)[C@@H](CO)O2)c(F)cc1F	YS/R (TK-)	HEL	>200 µM
C=CCCCCc1cc2cn([C@H]3C[C@H](O)[C@@H](CO)O3)c(=O)nc2o1	YS	HEL	33 µM
O=c1[nH]c(=O)n([C@H]2C[C@H](O)[C@@H](CO)O2)cc1C(O)C(Cl)Cl	ELLEN	HFF	6 µM
O=C(NCc1ccc(Cl)cc1)c1c[nH]c2c(F)cccc2c1=O	20 isolates	-	1.1 µM
Nc1nc2c(ncn2COCCO)c(=O)[nH]1	-	-	3.8 µg/mL
O=c1[nH]c(=O)n([C@H]2C[C@H](O)[C@@H](CO)O2)cc1/C=C/Br	07/1 (TK-)	HEL	>150 µM
CC1(C)[C@@H](CCO)C[C@H]1n1cnc2c(N)nc(N)nc21	(TK-)07/1	HEL	50 µg/mL
COC(c1cn([C@H]2C[C@H](O)[C@@H](CO)O2)c(=O)[nH]c1=O)C(Br)Br	ELLEN	HFF	>225 µM
Nc1nc(N)c2ncn(OCC(CO)OCP(=O)(O)O)c2n1	ELLEN	MRC-5	>300 µM
O=C(O)CP(=O)(O)O	Kawaguchi acyclovir-resistant mutant A7	-	1.25 µg/mL
COC(c1cn([C@H]2C[C@H](O)[C@@H](CO)O2)c(=O)[nH]c1=O)C(Br)I	ELLEN	HFF	93 µM
Nc1nc2c(ncn2C[C@H]2CCC[C@H]2CO)c(=O)[nH]1	OKA (TK+)	HEL	>50 µg/mL
COc1nc(=O)n([C@H]2C[C@H](O)[C@@H](CO)O2)cc1/C=C/Cl	OKA	HEL	4 µg/mL
OC[C@H]1O[C@@H](c2cc(C#CBr)c(F)cc2F)C[C@@H]1O	YS	HEL	13 µM
C=Cc1cn([C@@H]2O[C@H](CO)[C@@H](O)[C@@H]2O)c(=O)[nH]c1=O	Kawaguchi acyclovir-resistant mutant A6	-	0.115 µg/mL
O=c1[nH]c(=O)n([C@H]2C[C@H](O)[C@@H](CO)O2)cc1C(O)C(Br)I	ELLEN	HFF	6 µM
C=C1[C@H](CO)[C@@H](O)C[C@@H]1n1cnc2c(=O)[nH]c(N)nc21	-	WI-38	12 µM
CCCCCCCCCCc1cc2cn([C@H]3C[C@H](O)[C@@H](CO)O3)c(=O)nc2o1	07/1 (TK-)	HEL	>50 µM
Nc1nc(=O)n([C@H]2C[C@H](O)[C@@H](CO)O2)cc1/C=C/Cl	YS	HEL	0.015 µg/mL
Cc1cccc(CSCc2cnc3c(Br)cc(Br)c(C)n23)c1	OKA (TK+)	HEL	4.9 µg/mL
CCCCCSc1nc(N)nc2c1ncn2/C=C1/C[C@@H]1CO	-	HFF	2.5 µM
CCCCCCCCCCCCc1cc2cn([C@H]3C[C@H](O)[C@@H](CO)O3)c(=O)nc2[nH]1	YS	HEL	14 µM
Nc1nc(N)c2ncn(C[C@H]3CCC[C@H]3CO)c2n1	YS (TK+)	HEL	>50 µg/mL
OC[C@H]1O[C@@H](c2cc(C(O)C(I)I)c(F)cc2F)C[C@@H]1O	07/1 (TK-)	HEL	115 µg/mL
Nc1ncc2ncn(C[C@H]3CCC[C@H]3CO)c2n1	OKA (TK+)	HEL	>20 µg/mL
O=c1[nH]c(=O)n(C[C@]2(CO)C[C@H]2CO)cc1/C=C/Br	Kawaguchi	HEL	0.67 µg/mL
Cc1ccc(CSCc2cnc3c(Br)cc(Br)c(C)n23)cc1	YS (TK+)	HEL	>20 µg/mL
Cc1cc([C@@H]2C[C@H](O)[C@@H](CO)O2)c(F)cc1F	(TK-)/YS/R	HEL	>200 µM
O=c1[nH]cnc2c1ncn2[C@@H]1O[C@H](CO)[C@H]1CO	TK+/YS	HEL	89 µg/mL
COc1nc(N)nc2c1ncn2OCCOCP(=O)(O)O	ELLEN	MRC-5	<0.09 µM
N#Cc1cc([C@H]2C[C@H](O)[C@@H](CO)O2)c(F)cc1F	TK+/YS	HEL	>200 µM
CCCCCCCCCCCCc1cc2cn([C@H]3C[C@H](O)[C@@H](CO)O3)c(=O)nc2o1	YS/R (TK-)	HEL	>50 µM
CC1(C)[C@@H](CCO)C[C@H]1n1nnc2c(=O)[nH]c(N)nc21	(TK-)07/1	HEL	>50 µg/mL
Nc1nc2c(ncn2C[C@]2(CO)C[C@H]2CO)c(=O)[nH]1	11 isolates	HEL	0.097 µg/mL
Cc1cc([C@@H]2C[C@H](O)[C@@H](CO)O2)c(Cl)cc1F	(TK+)/OKA	HEL	>200 µM
Nc1nc2c(ncn2CSC(CO)CO)c(=O)[nH]1	6350	MRC-5	26 µM
Cc1c(Br)cc(Br)c2ncc(CSCc3ccc(F)cc3)n12	07/1 (TK-)	HEL	>5 µg/mL
O=c1[nH]c(=O)c2ncn([C@@H]3O[C@H](CO)[C@H]3CO)c2[nH]1	(TK-)/YS/R	HEL	176 µg/mL
CCCOc1nc(N)nc2c1ncn2/C=C1/C[C@@H]1CO	-	HFF	8 µM
Nc1nc2c(ncn2COC2COP(=O)(O)OC2)c(=O)[nH]1	KMCC	MRC-5	0.6–1.2 µM
Cc1cn([C@@H]2O[C@H](CO)[C@H]2CO)c(=O)[nH]c1=O	V8908 (TK-)	HFF	3 µg/mL
CC1(C)[C@@H](CCO)C[C@H]1n1nnc2c(=O)[nH]cnc21	TK+/YS	HEL	>20 µg/mL
Nc1ncnc2c1ncn2[C@@H]1O[C@H](CO)[C@H]1CO	TK+/YS	HEL	28 µg/mL
OC[C@H]1O[C@H](c2cc(I)c(F)cc2F)C[C@@H]1O	(TK-)07/1	HEL	>200 µM
Nc1nc2c(ncn2OCC2COP(=O)(O)CO2)c(=O)[nH]1	ELLEN	MRC-5	26 µM
CCCSc1nc(N)nc2c1ncn2/C=C1/C[C@@H]1CO	-	HFF	>69 µM
OC[C@H]1O[C@@H](c2cc(C#CI)c(F)cc2F)C[C@@H]1O	YS/R (TK-)	HEL	>20 µM
Cc1c(Br)cc(Br)c2ncc(CSCc3ccccc3F)n12	YS/R (TK-)	HEL	>5 µg/mL
Cn1cc(C(=O)NCc2ccc(Cl)cc2)c(=O)c2cc(CN3CCOCC3)ccc21	SL varicella isolate	HFF	0.1 µM
CCCCCCCCCCCCc1cc2cn([C@H]3C[C@H](O)[C@@H](CO)O3)c(=O)nc2o1	YS	HEL	1.2 µM
Cc1c(Br)cc(Br)c2ncc(CSCc3cccs3)n12	OKA (TK+)	HEL	>2 µg/mL
CCCCCCOc1ccc(-c2cc3cn([C@H]4C[C@H](O)[C@@H](CO)O4)c(=O)nc3o2)cc1	OKA	HEL	0.0015 µM
Nc1nc(NCCO)c2ncn(/C=C3/C[C@@H]3CO)c2n1	-	HFF	>60 µM
O=C(NCc1ccc(Cl)cc1)c1c[nH]c2ccc(CCCO)cc2c1=O	KLE	-	0.1 µM
Nc1nc(NC2CCCCC2)c2ncn(/C=C3/C[C@@H]3CO)c2n1	-	HFF	180 µM
OC[C@H]1O[C@@H](c2cc(I)c(F)cc2F)C[C@@H]1O	(TK+)/OKA	HEL	>200 µM
Nc1nc(NC2CC2)c2ncn(/C=C3/C[C@@H]3CO)c2n1	-	HFF	12 µM
O=c1[nH]c(=O)n([C@H]2C[C@H](O)[C@@H](CO)O2)cc1C(O)C(Cl)I	ELLEN	HFF	6.9 µM
Nc1nc(NCc2ccccc2)c2ncn(/C=C3/C[C@@H]3CO)c2n1	-	HFF	>62 µM
[N-]=[N+]=NC(CBr)c1cn(CCC(CO)CO)c(=O)[nH]c1=O	ELLEN	HFF	16.2 µM